Compound potency records, mixed from different reports. Data source: NIAID ChemDB in PubChem.

Shared fields: tests in culture; agent: HIV-1; endpoint: inhibition

Inhibition is in % at the dose shown (toxicity tests: loss of growth or viability).

structure,cell line,strain or isolate,conditions,dose,method,result
C=C(C)[C@@H]1CC[C@]2(C(=O)O)CC[C@]3(C)C(CCC4[C@@]5(C)CC[C@H](OC(=O)CN(OC)C6O[C@H](CO)[C@H](O)[C@H](O)[C@H]6O)C(C)(C)C5CC[C@]43C)C12,-,IIIB,-,10 µM,cytopathic effect,3%
CC(=O)N1C(=O)[C@@H](c2ccccc2)NC1=S,MT-4,-,-,10 µg/mL,cytopathic effect / XTT,0%
CC(=O)N(C)c1nc(C(=O)NCc2ccc(F)cc2)c(O)c2ncccc12,MT-4,-,50% human serum,0.612 µM,p24,>95%
O=C(NCCc1ccccc1)Nc1ccn[nH]1,MT-4,-,-,100 µg/mL,cytopathic effect / XTT,0%
C=C(C)[C@@H]1CC[C@]2(C(=O)O)CC[C@]3(C)C(CCC4[C@@]5(C)CC[C@H](OC(=O)CN(OC)C6O[C@H](C)[C@H](O)[C@H](O)[C@H]6O)C(C)(C)C5CC[C@]43C)C12,-,IIIB,-,10 µM,cytopathic effect,28%
O=C(NCCc1ccccc1)Nc1nncs1,MT-4,-,-,100 µg/mL,cytopathic effect / XTT,100%
CC1(C)CC[C@]2(C(=O)NCCCC(=O)NCC(=O)O)CC[C@]3(C)C(=CC[C@@H]4[C@@]5(C)C[C@@H](O)[C@H](O)C(C)(C)[C@@H]5CC[C@]43C)[C@@H]2C1,MT-2,pNL4-3,-,25 µM,p24 / ELISA,-43.3%
CC1(C)[C@@H](O[C@H]2O[C@H](C(=O)O)[C@@H](O)[C@H](O)[C@H]2O[C@@H]2O[C@H](C(=O)O)[C@@H](O)[C@H](O)[C@H]2O)CC[C@]2(C)[C@H]3C(=O)C=C4[C@@H]5C[C@@](C)(C(=O)O)CC[C@]5(C)CC[C@@]4(C)[C@]3(C)CC[C@@H]12,MOLT-4,IIIB,6 d,1200 µM,virus yield,80%
Cc1nnc(NC(=O)NCCc2ccccc2)s1,MT-4,-,-,100 µg/mL,cytopathic effect / XTT,20%
C=C(C)[C@@H]1CC[C@]2(C(=O)O)CC[C@]3(C)C(CCC4[C@@]5(C)CC[C@H](OC(=O)CN(OC)[C@@H]6OC[C@@H](O)[C@H](O)[C@@H]6O)C(C)(C)C5CC[C@]43C)C12,-,IIIB,-,10 µM,cytopathic effect,6%
CCc1nnc(NC(=O)NCCc2ccccc2)s1,MT-4,-,-,100 µg/mL,cytopathic effect / XTT,17%
Cc1c2ccnc(Cl)c2cc2c3cn(C)ccc-3nc12,MT-2,-,-,1 µM,syncytia,100%
Cc1ccnc(NC(=O)NCCc2ccccc2)n1,MT-4,-,-,100 µg/mL,cytopathic effect / XTT,100%
C[C@H]1[C@H](O)[C@@H](C)/C=C/C=C/C=C/C=C/C=C/C=C/C=C/[C@H](O[C@@H]2O[C@H](C)[C@@H](O)[C@H](N)[C@@H]2O)C[C@@H]2O[C@](O)(C[C@@H](O)C[C@@H](O)CC[C@H](O)[C@@H](O)C[C@@H](O)CC(=O)O[C@H]1C)C[C@H](O)[C@H]2C(=O)O,H9,IIIB,-,1 µg/mL,p24 / antigen,72%
CC1(C)CC[C@]2(C(=O)NCC(=O)O)CC[C@]3(C)C(=CC[C@@H]4[C@@]5(C)C[C@@H](O)[C@H](O)C(C)(C)[C@@H]5CC[C@]43C)[C@@H]2C1,MT-2,pNL4-3,-,25 µM,p24 / ELISA,-30.7%
O=C(NCCc1ccccc1)Nc1ncccn1,MT-4,-,-,100 µg/mL,cytopathic effect / XTT,22%
CCCCCCCCCCCCCCCC(=O)NCC1OC(n2cnc3c(N)ncnc32)C(OP(=O)(O)OCC2OC(n3cnc4c(N)ncnc43)C(OP(=O)(O)OCC3CC(O)C(n4cnc5c(N)ncnc54)O3)C2O)C1O,SupT1 + Sup-T1,IIIB,-,100 µM,syncytia,85.1%
N=C1Sc2ccccc2C2=NCCCN12,TZM-bl,92HT599,-,5.9 µM,β-galactosidase,90%
C[C@H](NC(=O)CCCCCNC(=O)[C@]12CCC(C)(C)C[C@H]1C1=CC[C@@H]3[C@@]4(C)C[C@@H](O)[C@H](O)C(C)(C)[C@@H]4CC[C@@]3(C)[C@]1(C)CC2)C(=O)O,MT-2,pNL4-3,-,25 µM,p24 / ELISA,29.8%
CC1(C)OC(=O)C2(C(=O)O1)[C@@H](c1ccccc1)CC(=O)C[C@H]2[C@H]1COC(C)(C)O1,SupT1,NL4-3,-,0.1 µM,MTT,>50%
O=C(NCCc1ccccc1)Nc1nc2ccc(F)cc2s1,MT-4,-,-,10 µg/mL,cytopathic effect / XTT,21–100%
C=C(C)[C@@H]1CC[C@]2(C(=O)O)CC[C@]3(C)C(CCC4[C@@]5(C)CC[C@H](OC(=O)CN(OC)C6C[C@H](O)[C@H](O)[C@@H](C)O6)C(C)(C)C5CC[C@]43C)C12,-,IIIB,-,10 µM,cytopathic effect,12%
CCCCCCCCCCCCCCCC(=O)NCC1CC(OP(=O)(O)OCC2CC(OP(=O)(O)OCC3CC(O)C(n4cnc5c(N)ncnc54)O3)C(n3cnc4c(N)ncnc43)O2)C(n2cnc3c(N)ncnc32)O1,SupT1 + Sup-T1,IIIB,-,100 µM,syncytia,88.5%
COC(=O)CNC(=O)[C@]12CCC(C)(C)C[C@H]1C1=CC[C@@H]3[C@@]4(C)C[C@@H](O)[C@H](O)C(C)(C)[C@@H]4CC[C@@]3(C)[C@]1(C)CC2,MT-2,pNL4-3,-,10 µM,p24 / ELISA,24.5%
C=C(C)[C@@H]1CC[C@]2(C(=O)O)CC[C@]3(C)C(CCC4[C@@]5(C)CC[C@H](OC(=O)CN(OC)C6O[C@@H](CO)[C@H](O)[C@@H](O)[C@@H]6O)C(C)(C)C5CC[C@]43C)C12,-,IIIB,-,10 µM,cytopathic effect,1%
Cc1ccc(-c2ccc3c(c2)C=C(C(=O)Nc2ccc(C[N+](C)(C)C4CCOCC4)cc2)CCC3)cc1,PBMC,PCP1 CLADE C,-,5 µM,p24,94.4%
CC(C)[C@H](NC(=O)CCCNC(=O)[C@]12CCC(C)(C)C[C@H]1C1=CC[C@@H]3[C@@]4(C)C[C@@H](O)[C@H](O)C(C)(C)[C@@H]4CC[C@@]3(C)[C@]1(C)CC2)C(=O)O,MT-2,pNL4-3,-,10 µM,p24 / ELISA,33.8%
C=C(C)[C@@H]1CC[C@]2(C(=O)O)CC[C@]3(C)C(CCC4[C@@]5(C)CC[C@H](OC(=O)CN(OC)C6O[C@H](CO)[C@@H](O)[C@H](O)[C@H]6F)C(C)(C)C5CC[C@]43C)C12,-,IIIB,-,10 µM,cytopathic effect,17%

3 of the rows above, restated:

structure | cell line | strain or isolate | conditions | dose | method | result
C=C(C)[C@@H]1CC[C@]2(C(=O)O)CC[C@]3(C)C(CCC4[C@@]5(C)CC[C@H](OC(=O)CN(OC)C6O[C@@H](CO)[C@H](O)[C@@H](O)[C@@H]6O)C(C)(C)C5CC[C@]43C)C12 | - | IIIB | - | 10 µM | cytopathic effect | 1%
C=C(C)[C@@H]1CC[C@]2(C(=O)O)CC[C@]3(C)C(CCC4[C@@]5(C)CC[C@H](OC(=O)CN(OC)[C@@H]6OC[C@@H](O)[C@H](O)[C@@H]6O)C(C)(C)C5CC[C@]43C)C12 | - | IIIB | - | 10 µM | cytopathic effect | 6%
O=C(NCCc1ccccc1)Nc1nncs1 | MT-4 | - | - | 100 µg/mL | cytopathic effect / XTT | 100%

Two numbers with a dash give a range or band. Blank or dashed fields: not listed here. Rows are shuffled and stem from different studies.